# From paper PMC3366674, “Epigenetic Tailoring for the Production of Anti-Infective Cytosporones from the Marine Fungus Leucostoma persoonii” (Marine Drugs, 2012)
# How the values were obtained:
# [1] = system: methicillin-resistant Staphylococcus aureus (MRSA) USA100; assay: Microtiter MIC determination against MRSA USA100; format: cell-based; conditions: selectivity for bacteria relative to mammalian cells
# Description: The strain of MRSA used in our bioassays is a hospital-associated clone from the CDC USA 100 lineage. […] It is thus deemed an extensively drug resistant strain, and something of a worst-case scenario MRSA isolate.
# The minimum inhibitory concentration (MIC) of the pure compounds was determined as follows. Broth cultures were prepared for S. aureus strains as described above. These were diluted 1:1000 in fresh Trypticase Soy Broth (TSB) and 200 µL was applied to the wells of a sterile 96-well plate. Compounds (in DMSO) were added to wells at concentrations ranging from 1, 10, 25, 50 to 100 µg/mL in a volume no greater than 5 µL. Concentrations were adjusted to lower levels if applicable. Samples were mixed by pipetting and the plates were incubated at 37 °C overnight. MICs were determined by visual inspection for the minimum concentration of compound producing no bacterial growth, as determined by a lack of turbidity. Assays were repeated three times in order to verify the MIC determinations. […] These were incubated overnight at 37 °C and the bacterial loads of each well were determined by enumeration. Percentage killing was determined by the comparison of drug-containing wells to control wells where no compound was added.
# [2] = system: Plasmodium falciparum; assay: Malaria assay (luciferase-reporter Plasmodium falciparum); format: cell-based; conditions: 90% inhibition therapeutic index
# Description: Mangrove endophytes isolated as described above were subject to small-scale cultivation on Sabouraud dextrose agar (SDA), freeze dried, then extracted with methanol. Extracts at a concentration of 30 mg/mL were screened in a luciferase-reporter Plasmodium falciparum assay.
# Malaria screening was done as previously reported.
SMILES,TI90 = IC90 A549/MIC90 (MRSA) ([1]; listed as Cytosporone E (3)),TI90 = IC90 A549/IC90 P. falciparum [2],TI90 = IC90 A549/IC90 P. falciparum ([2]; listed as Cytosporone E (3)),TI90 = IC90 A549/MIC90 (MRSA) [1]
"CCCCCCCC1OC(=O)c2cc(O)c(O)c(O)c21 (stereo not shown) [Cytosporone E, cytosporone E]",> 10,33,> 10,
"CCCCCCCC(=O)c1c(O)cc(O)cc1CC(=O)OCC [Cytosporone B, cytosporone B]",,,,6
